Measured values from several laboratories, pooled; numbers as filed in NIAID ChemDB.

Common to all: enzyme or target tests; species: HIV-1; target: Protease; read-out: IC50

An empty or dashed field is not shown. Neighbouring rows are from separate reports. ICn: concentration for n% inhibition.

C=C(C)/C([O-])=N/[N+](C)(Cc1ccccc1)C[C@H](O)[C@H](Cc1ccccc1)NC(=O)OC(C)(C)C ; method: HPLC ; value: 5 µM
CN1CCN(C(=O)[C@@H]2O[C@@H]3CN(Cc4ccccc4)C(=O)[C@H]2O3)CC1 ; method: FRET ; value: 2.6 µM
CC[C@@H](C)[C@H](NC(=O)[C@@H]1CCCN1C(=O)[C@@H](O)[C@H](CC1CCCCC1)NC(=O)[C@H](CC(N)=O)NC(=O)[C@@H]1Cc2ccccc2N1)C(=O)N[C@H](C(N)=O)C(C)C ; value: <5 µM
C=C(C)[C@H]1CC[C@]2(C)[C@H]3CC[C@@H]4[C@@]5(C)C[C@H](O)C[C@@](C)(C(=O)O)[C@@H]5CC[C@@]4(C)[C@]3(C)CC[C@@H]12 ; method: HPLC ; value: 10.8 µM
Cc1ccccc1CNC(=O)[C@@H]1CSCN1C(=O)[C@@H](O)[C@H](Cc1ccccc1)NC(=O)C(C)C(C)C(=O)OC[C@@H]1O[C@H](n2cc(C)c(=O)[nH]c2=O)C[C@H]1N=[N+]=[N-] ; value: ~5 µM
COc1ccc(O)c([C@H]2CC(=O)c3c(O)c(C)c(O)c(C)c3O2)c1 ; method: HPLC ; value: 100.9 µM
CC(C)c1ccccc1Sc1c(O)cc(-c2ccc(OCc3cccnc3)cc2)oc1=O ; method: HPLC ; conditions: pH 6.2 ; value: 0.99 µM
CC(C)c1nc(CN(C)C(=O)N[C@H](C(=O)N[C@@H](Cc2ccccc2)[C@H](O)CN2CCN(Cc3cncs3)C[C@H]2C(=O)NC(C)(C)C)C(C)C)cs1 ; method: substrate cleavage ; value: <0.0005 µM
CCC(CC)NC(=O)[C@@H]1CCCN1C(=O)[C@@H](O)[C@H](Cc1ccccc1)NC(=O)[C@H](CC(N)=O)NC(=O)OCc1ccccc1 ; value: <5 µM
CC[C@H](CC[C@@H](C)C1CCCC2C3CC=C4C[C@@H](O[C@@H]5O[C@@H](CO)[C@H](O)[C@@H](O)[C@@H]5C)CC[C@]4(C)C3CC[C@@]21C)C(C)C ; method: HPLC ; value: >300 µM
CC(C)c1nc(COC(=O)N[C@H](C(=O)N[C@@H](Cc2ccccc2)[C@H](O)CN2CCN(Cc3cccc(O)c3)C[C@H]2C(=O)NC(C)(C)C)C(C)C)cs1 ; method: substrate cleavage ; value: <0.0005 µM
CC(C)c1ccccc1Sc1c(O)cc(-c2ccc(OCc3ccc4ccccc4c3)cc2)oc1=O ; method: HPLC ; conditions: pH 4.7 ; value: >10 µM
CC(C)c1nc(COC(=O)N[C@H](C(=O)N[C@@H](Cc2ccccc2)[C@H](O)CN2CCN(Cc3cccnc3)C[C@H]2C(=O)NC(C)(C)C)C(C)C)cs1 ; method: substrate cleavage ; value: <0.0005 µM
CC(C)/C([O-])=N/[N+](C)(Cc1ccccc1)C[C@H](O)[C@H](Cc1ccccc1)NC(=O)OC(C)(C)C ; method: HPLC ; value: 2.5 µM
Cc1cccc(C)c1OCC(=O)N[C@@H](Cc1ccccc1)[C@H](O)CN1CCC[C@H]1C(=O)NC(=O)COc1ccccc1 ; method: fluorescence ; value: 0.0847 µM
CC(C)(C)OC(=O)N(C(=O)[C@@H](N)CC(N)=O)[C@@H](Cc1ccccc1)[C@@H](O)C[N+](C)(Cc1ccccc1)/N=C(\[O-])c1ccccc1 ; method: HPLC ; value: 34 µM
Cc1ccc(C(C)C)c(Sc2c(O)cc(-c3ccc(OCc4cccnc4)cc3)oc2=O)c1 ; method: HPLC ; conditions: pH 4.7 ; value: 0.073 µM
CC(C)[C@H](NC(=O)N(C)Cc1cncs1)C(=O)N[C@@H](Cc1ccccc1)[C@H](O)CN1CCN(Cc2cncs2)C[C@H]1C(=O)NC(C)(C)C ; method: substrate cleavage ; value: ~0.0005 µM
O=c1c(OC2O[C@@H](O)[C@H](O)[C@H](O)[C@H]2O)c(-c2ccc(O)cc2)oc2cc(OC3O[C@@H](O)[C@H](O)[C@H](O)[C@H]3O)cc(O)c12 ; method: HPLC ; value: >300 µM
CC(C)c1ccccc1Sc1c(O)cc(-c2cccc(OCc3ccccn3)c2)oc1=O ; method: HPLC ; conditions: pH 4.7 ; value: 0.067 µM
CC(C)(C)NC(=O)[C@H]1N(C(=O)[C@@H](O)[C@H](Cc2ccccc2)NC(=O)CC(C)(C)C(=O)O)CSC1(C)C ; value: <5 µM
CC(C)c1ccccc1Sc1c(O)cc(-c2ccc(OCC(=O)O)cc2)oc1=O ; method: HPLC ; conditions: pH 4.7 ; value: 0.019 µM
CC(C)c1nc(COC(=O)N[C@H](C(=O)N[C@@H](Cc2ccccc2)[C@H](O)CN2CCN(Cc3ccc(O)cc3)C[C@H]2C(=O)NC(C)(C)C)C(C)C)cs1 ; method: substrate cleavage ; value: <0.0005 µM
CC(C)(C)NC(=O)[C@@H]1CCCN1C(=O)[C@@H](O)[C@H](Cc1ccccc1)NC(=O)[C@H](CS(C)(=O)=O)NC(=O)CNc1cccc2ccccc12 ; value: ~0.05 µM
CC(C)c1ccccc1Sc1c(O)cc(-c2cccc(OCc3cccnc3)c2)oc1=O ; method: HPLC ; conditions: pH 4.7 ; value: 0.045 µM
NC(=O)C[C@H](N)C(=O)N[C@@H](Cc1ccccc1)[C@@H](O)C(=O)NCC1CCCCC1 ; value: >1000 µM
CC(C)c1ccccc1Sc1c(O)cc(-c2ccc(OCn3cnnn3)cc2)oc1=O ; method: HPLC ; conditions: pH 4.7 ; value: 0.036 µM
CC[C@@H](C)[C@H](NC(=O)[C@@H]1CCCN1C(=O)[C@@H](O)[C@H](CC1CCCCC1)NC(=O)[C@H](CC(N)=O)NC(=O)c1cccs1)C(=O)N[C@H](C(N)=O)C(C)C ; value: <5 µM
CC(C)c1ccccc1Sc1c(O)cc(-c2ccc(Oc3ccccc3)cc2)oc1=O ; method: HPLC ; conditions: pH 4.7 ; value: 0.36 µM
CC[C@H](C)[C@H](NC(=O)[C@@H]1CCCN1C(=O)[C@@H](O)[C@H](Cc1ccccc1)NC(=O)[C@H](CC(N)=O)NC(=O)CCc1ccccc1)C(=O)N[C@H](C(N)=O)C(C)C ; value: <5 µM
CC(C)(C)NC(=O)[C@@H]1CSCN1C(=O)[C@@H](O)[C@H](Cc1ccccc1)NC(=O)CCC(=O)O ; value: <5 µM
CC(C)C[C@H](NC(=O)OC(C)(C)C)[C@@H](O)C[N+](C)(Cc1ccccc1)/N=C(\[O-])c1ccccc1 ; method: HPLC ; value: 5 µM
Cc1nc(COC(=O)N[C@H](C(=O)N[C@@H](Cc2ccccc2)[C@H](O)CN2CCN(Cc3ccc(F)cc3)C[C@H]2C(=O)NC(C)(C)C)C(C)C)cs1 ; method: substrate cleavage ; value: 0.0005 µM
CS(=O)(=O)C[C@H](NC(=O)COc1cccc2ccccc12)C(=O)N[C@@H](Cc1ccccc1)[C@H](O)C(=O)N1CCC[C@H]1C(=O)Nc1ccccc1O ; value: >0.05 µM
CC(C)(C)OC(=O)N[C@@H](Cc1ccccc1)[C@@H](O)C[N+](C)(Cc1ccccc1)/N=C(\[O-])C1CC1 ; method: HPLC ; value: 3 µM

Repeating the first 5 entries:

smiles,method,conditions,value
C=C(C)/C([O-])=N/[N+](C)(Cc1ccccc1)C[C@H](O)[C@H](Cc1ccccc1)NC(=O)OC(C)(C)C,HPLC,,5 µM
CN1CCN(C(=O)[C@@H]2O[C@@H]3CN(Cc4ccccc4)C(=O)[C@H]2O3)CC1,FRET,,2.6 µM
CC[C@@H](C)[C@H](NC(=O)[C@@H]1CCCN1C(=O)[C@@H](O)[C@H](CC1CCCCC1)NC(=O)[C@H](CC(N)=O)NC(=O)[C@@H]1Cc2ccccc2N1)C(=O)N[C@H](C(N)=O)C(C)C,,,<5 µM
C=C(C)[C@H]1CC[C@]2(C)[C@H]3CC[C@@H]4[C@@]5(C)C[C@H](O)C[C@@](C)(C(=O)O)[C@@H]5CC[C@@]4(C)[C@]3(C)CC[C@@H]12,HPLC,,10.8 µM
Cc1ccccc1CNC(=O)[C@@H]1CSCN1C(=O)[C@@H](O)[C@H](Cc1ccccc1)NC(=O)C(C)C(C)C(=O)OC[C@@H]1O[C@H](n2cc(C)c(=O)[nH]c2=O)C[C@H]1N=[N+]=[N-],,,~5 µM